Sequence variants of PSTVd stem 3 after infection

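Three N. benthamiana plants were inoculated with the whole mutant pool. Samples came from the inoculated region at 5 days, the leaf margin at 10 and upper systemic leaves at 12.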

Region: stem 3 of PSTVd (intermediate strain), upper and lower strand joined, each 5' to 3', the first 8 letters being the upper strand. Wild type: GUGGUUCCGGAACCGC. Varied positions (N): GUGGUUCCGNANNCNN.

Numbers give reads per thousand; 0 = not seen among the reads, higher = more abundant.
Each value is the mean of three plants.
"Pool" is the share in the plasmid pool used as inoculum, on the same scale.
The inoculated region was read from the minus strand, the other sites from the plus strand.
IR is the inoculated region, LM the leaf margin, Sys the systemic leaves.
The authors trace changes outside the varied positions to PCR and sequencing errors or to mutation in the plant; presence does not show that a variant is infectious alone.
Samples held 27,691 to 54,225 reads, so the smallest values rest on one or two reads.
Wild type was 17.3 per thousand in the pool and the most common sequence in every sample (inoculated region 330, 345, 235; leaf margin 794, 766, 816; systemic leaves 830, 792, 869).

sequence	pool	IR	LM	Sys
GGGGUUCCGUAAACGA	0.0154	0	0	0
GUGGGUCCGAAAGCGG	0.0154	0	0	0
GUGGGUCCGAAAUCAC	0.0154	0	0	0
GUGGUUACGAACCCUG	0.0154	0	0	0
GUGGUUCCGAAAACAA	0.739	0.864	0.120	0
GUGGUUCCGAAAACAU	1.06	0.939	0.974	1.11
GUGGUUCCGAAAACUC	0.939	0.297	0	0.00811
GUGGUUCCGAAACCAA	1.51	1.14	0	0.00615
GUGGUUCCGAAACCCU	0.846	0.675	0	0
GUGGUUCCGAAAGCCA	0.816	0.262	0	0
GUGGUUCCGAAAUCGG	1.12	0.983	0.0562	0
GUGGUUCCGAACACGA	1.05	0.362	0	0
GUGGUUCCGAACACUG	0.954	0.319	0.0212	0
GUGGUUCCGAACCCUG	0.769	0.369	0.0120	0
GUGGUUCCGAACUCUA	0.785	0.697	0.251	0
GUGGUUCCGAACUCUU	0.970	0.666	0.0215	1.17
GUGGUUCCGAAUACCC	0.754	0.294	0.0120	0
GUGGUUCCGAAUACGC	0.816	0.406	0.0120	0
GUGGUUCCGAAUCCAC	0.800	0.752	0.169	0
GUGGUUCCGAAUCCGC	0.893	0.803	0.208	0
GUGGUUCCGAAUGCUG	1.29	0.312	0.0438	0.0683
GUGGUUCCGAAUGGCA	0.0154	0	0	0
GUGGUUCCGAAUUCGU	0.600	0.779	0.0106	0
GUGGUUCCGCAAACAA	0.677	0.285	0.0120	0
GUGGUUCCGCAAACCC	0.754	0.303	0.00944	0
GUGGUUCCGCAAACGA	0.893	0.294	0	0
GUGGUUCCGCAACCGU	0.862	0.261	0	0
GUGGUUCCGCACCCAC	0.631	0.278	0.0120	0
GUGGUUCCGCACCCCC	0.862	0.353	0.0215	0
GUGGUUCCGCACGCUU	0.569	0.344	0	0
GUGGUUCCGCAGACCA	0.877	0.374	0.0106	0
GUGGUUCCGCAGACUA	0.923	0.270	0.0200	0
GUGGUUCCGCAGCCAC	0.769	0.667	0.193	0
GUGGUUCCGCAGCCCG	0.785	0.328	0.0215	0
GUGGUUCCGCAGGCAA	0.893	0.702	0.0106	0
GUGGUUCCGCAGGCAU	0.923	0.665	0.412	0
GUGGUUCCGCAGGCCC	0.785	0.309	0.0347	0
GUGGUUCCGCAGGCUG	0.862	0.297	0.0120	0
GUGGUUCCGCAGUCAU	0.985	0.763	1.04	1.21
GUGGUUCCGCAUACAG	0.723	0.323	0.00944	0
GUGGUUCCGCAUCCAU	0.754	1.26	0.0949	0
GUGGUUCCGCAUUCGU	1.06	0.758	0.00944	0.0683
GUGGUUCCGGAAACUU	0.954	0.333	0.0120	0
GUGGUUCCGGAACUGC	0.108	0.247	0.626	0.335
GUGGUUCCGGAAGCAA	0.646	0.315	0.0106	0
GUGGUUCCGGAAGCCC	0.600	0.350	0.0307	0
GUGGUUCCGGAAUCCG	0.939	0.376	0.0321	0
GUGGUUCCGGAAUCGC	1.11	0.619	0.298	0.331
GUGGUUCCGGACACCC	0.754	0.315	0.0120	0
GUGGUUCCGGACGAUG	0.0154	0	0	0
GUGGUUCCGGACUCGU	1.29	0.917	0.253	0.0143
GUGGUUCCGGAGGCAC	0.769	0.824	0.167	0
GUGGUUCCGGAGGCCA	1.08	0.385	0	0.00811
GUGGUUCCGGAGGCGC	1.00	0.455	0.0241	0.0434
GUGGUUCCGGAGUCGG	0.662	0.831	0.181	0
GUGGUUCCGGAUACUA	1.26	0.440	0	0.0497
GUGGUUCCGGAUCCGG	0.908	0.272	0.0120	0.0305
GUGGUUCCGGAUGCAU	0.739	0.798	0.103	0.00615
GUGGUUCCGGAUUCAA	1.08	1.29	0	0.00621
GUGGUUCCGGAUUCCU	1.57	1.27	0.0453	0.00621
GUGGUUCCGGAUUCGG	0.631	0.356	0	0
GUGGUUCCGUAAACAC	0.923	0.281	0.0106	0
GUGGUUCCGUAACCGA	1.12	0.242	0.0120	0.0186
GUGGUUCCGUAAGCUG	0.662	0.299	0	0
GUGGUUCCGUAAUCCA	1.17	0.447	0.0120	0
GUGGUUCCGUACCCUA	0.769	0.276	0.00944	0
GUGGUUCCGUACCCUC	0.893	0.386	0.0120	0
GUGGUUCCGUACUCGG	0.816	0.290	0	0
GUGGUUCCGUAGACAG	0.831	0.833	0	0
GUGGUUCCGUAGCCAU	0.554	0.772	0.0318	0
GUGGUUCCGUAGCCCA	0.708	0.362	0.0120	0
GUGGUUCCGUAGGCCU	0.908	0.853	0	0
GUGGUUCCGUAUACAG	1.03	0.456	0.00944	0

The opening 4 entries, copied out:

| sequence | pool | IR | LM | Sys |
|---|---|---|---|---|
| GGGGUUCCGUAAACGA | 0.0154 | 0 | 0 | 0 |
| GUGGGUCCGAAAGCGG | 0.0154 | 0 | 0 | 0 |
| GUGGGUCCGAAAUCAC | 0.0154 | 0 | 0 | 0 |
| GUGGUUACGAACCCUG | 0.0154 | 0 | 0 | 0 |

Data from the supplement of Wu et al. 2024, doi:10.1371/journal.ppat.1012142.